Columns and labels:
[1] = target: T1, SARS CoV-2 PLpro (Severe acute respiratory syndrome coronavirus 2 (2019-nCoV) (SARS-CoV-2), UniProt P0DTD1); assay: PLpro primary assay (Z-RLRGG-AMC peptide substrate); type: biochemical; conditions: compared with GRL0617 / parent
[2] = target: T1, SARS CoV-2 PLpro; assay: Surface Plasmon Resonance (SPR) binding assay; conditions: read-out: SPR binding assays KD; Table 11

CNC(=O)C[C@@H](NC(=O)c1cc(N(C)C2CNC2)ccc1C)c1cccc2ccccc12
PLpro inhibition potency, in words (SAR) [1]: almost completely inactive | Kd [2]: > 1 mM

— patent US20240166598A1, “COMPOUNDS, COMPOSITIONS, AND METHODS OF USING THE SAME” (priority 2021, published 2024)
